Assay results taken from ChEMBL document CHEMBL1156053, “Design, synthesis, protein-ligand X-ray structure, and biological evaluation of a series of novel macrocyclic human immunodeficiency virus-1 protease inhibitors to combat drug resistance” (J Med Chem, 2009).

What was measured:
Protease = Protease (Human immunodeficiency virus 1, UniProt Q9YQ12); experiment: Inhibition of HIV1 protease
[1] = tested on: Human immunodeficiency virus 1; experiment: Antiviral activity against HIV1 LAI infected in human MT2 cells by MTT assay; format: functional, organism-based; conditions: Human immunodeficiency virus 1, M:B_Lai
How it was run: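 MT-2 human T-lymphoid cells (2×10³) infected with HIV-1LAI at 100 TCID50, then cultured in the presence of each protease inhibitor. IC50 was determined from an MTT read-out of cell viability.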

Question: What does the source list for `COc1ccc2c(c1)OCCCCN(C[C@@H](O)[C@H](Cc1ccccc1)NC(=O)O[C@H]1CO[C@H]3OCC[C@H]31)S2(=O)=O`?
Answer: Ki (Protease): 1.27 nM; IC50 [1]: 77 nM
